Measured values from several laboratories, pooled; numbers as filed in NIAID ChemDB.

Shared fields: whole-cell or culture tests; species: HIV-1; endpoint: EC50

ECn is the concentration giving n% inhibition of infection, replication or growth.

structure	strain	cell line	read by	mutations	result
CC(C)CN(C[C@@H](O)[C@H](Cc1cc(F)cc(F)c1)NC(=O)O[C@H]1CO[C@H]2OC[C@H](NC(C)C)[C@H]21)S(=O)(=O)c1ccc2nc(NC3CC3)sc2c1	NL4-3	MT-4	p24 / luminescence		0.00022 µM
CCOC(=O)CNc1nc(NC(=O)Nc2ccc(C)cc2)nc(Oc2cc(=O)oc3ccccc23)n1	IIIB	MT-4	MTT		>11.27 µg/mL
CO[C@H]1C=C2C(C[C@H](O)[C@@H](O)C2(C)C)[C@]2(C)C(=O)C[C@]3(C)C([C@@](C)(O)C(=O)CCC(C)(C)OC(C)=O)[C@H](O)C[C@@]3(C)[C@H]12		C8166	cytopathic effect / MTT		94.2 µM
COc1cc(Cl)ccc1C(=O)NC[C@H](O)[C@@]12CC[C@]3(C)[C@H](CC[C@@H]4[C@@]5(C)CC[C@H](OC(=O)[C@H]6C[C@@H](C(=O)O)C6(C)C)C(C)(C)[C@@H]5CC[C@]43C)C1=C(C(C)C)C(=O)C2	92HT599	MT-2	p24 / ELISA		<1 µM
C/C(=N\Nc1nc(-c2ccc(Br)cc2)cs1)c1ccc2c(c1)OCO2	IIIB	MT-4	MTT		>41.93 µM
COc1ccc(CCNc2nc(NC(=O)Nc3ccccc3Cl)nc(Oc3cc(=O)oc4ccccc34)n2)cc1OC	IIIB	MT-4	MTT		>51.15 µg/mL
CC(CCC=C(CO)CO)C1CC[C@@]2(C)[C@@H]3CC=C4[C@@H](CCC(O)C4(C)C)[C@]3(C)C(O)C[C@]12C		C8166	cytopathic effect / MTT		63.1 µM
CC(C)C1=C2[C@H]3CC[C@@H]4[C@@]5(C)CC[C@H](OC(=O)[C@H]6C[C@@H](C(=O)O)C6(C)C)C(C)(C)[C@@H]5CC[C@@]4(C)[C@]3(C)CC[C@@]2(CCNCC(C)(C)NC(=O)c2ccc3c(c2)OCO3)CC1=O	92HT599	MT-2	p24 / ELISA		<1 µM
C/C(=N\Nc1nc(-c2ccc(Cl)cc2)cs1)c1ccc(-c2ccc(Br)cc2)cc1	IIIB	MT-4	MTT		>10.23 µM
CCCCC1(CCc2cccc(NS(=O)(=O)c3ccc(C)cc3)c2)COC(=O)C(C(CC)c2cccc(NS(=O)(=O)c3ccc(C)cc3)c2)=C1O	IIIB	MT-4			>66.6 µM
CC(C)C1=C2[C@H]3CC[C@@H]4[C@@]5(C)CC[C@H](OC(=O)[C@H]6C[C@@H](C(=O)O)C6(C)C)C(C)(C)[C@@H]5CC[C@@]4(C)[C@]3(C)CC[C@@]2([C@@H](O)CNC(=O)c2ccc(N3CCCCC3)cc2)CC1=O	92HT599	MT-2	p24 / ELISA		<1 µM
C/C(=N\Nc1nc(-c2ccc(Cl)cc2)cs1)c1ccc2c(c1)OCO2	IIIB	MT-4	MTT		>21.83 µM
CCOC(=O)CNc1nc(NC(=O)Nc2ccccc2OC)nc(Oc2cc(=O)oc3ccccc23)n1	IIIB	MT-4	MTT		>125 µg/mL
Cc1cncc(CN(CCN(C)C)C[C@H](O)[C@@]23CC[C@]4(C)[C@H](CC[C@@H]5[C@@]6(C)CC[C@H](OC(=O)[C@H]7C[C@@H](C(=O)O)C7(C)C)C(C)(C)[C@@H]6CC[C@]54C)C2=C(C(C)C)C(=O)C3)n1	92HT599	MT-2	p24 / ELISA		<1 µM
CCOC(=O)CNc1nc(Nc2ccc(Br)cc2)nc(Oc2cc(=O)oc3ccccc23)n1	RES056		MTT	RT-resistant RES056 (K103N + Y181C)	>51.28 µg/mL
CC(C)C1=C2[C@H]3CC[C@@H]4[C@@]5(C)CC[C@H](OC(=O)[C@H]6C[C@@H](C(=O)O)C6(C)C)C(C)(C)[C@@H]5CC[C@@]4(C)[C@]3(C)CC[C@@]2(CCNCc2ccc(C(F)(F)F)cc2)CC1=O	92HT599	MT-2	p24 / ELISA		<1 µM
COc1cc(/C(C)=N/Nc2nc(-c3ccc(Cl)cc3)cs2)cc(OC)c1OC	IIIB	MT-4	MTT		>16.39 µM
COc1ccc(CCNc2nc(NC(=O)Nc3ccc(Cl)cc3)nc(Oc3cc(=O)oc4ccccc34)n2)cc1OC	IIIB	MT-4	MTT		>35.43 µg/mL
CN(C)c1ccc(F)c(CCNC(=S)Nc2ccc(Cl)cn2)c1F	IIIB	MT-4	cytopathic effect / XTT		0.04 µM
C/C(=N\Nc1nc(-c2ccc([N+](=O)[O-])cc2)cs1)c1ccc(-c2ccc(Br)cc2)cc1	IIIB	MT-4	MTT		>66.15 µM
C[C@@H]1CCO[C@H]2Cn3cc(C(=O)NCc4ccc(F)cc4F)c(=O)c(O)c3C(=O)N12	NL4-3	MT-4	p24 / luminescence		0.0007 µM
CCCCC1(CCc2cccc(NS(=O)(=O)c3ccc(C#N)cc3)c2)COC(=O)C(C(CC)c2cccc(NS(=O)(=O)c3ccc(C#N)cc3)c2)=C1O	IIIB	MT-4			10.6 µM
O=[N+]([O-])c1ccc(-c2csc(N/N=C/c3ccncc3)n2)cc1	IIIB	MT-4	MTT		>75.6 µM
CCOC(=O)CNc1nc(Nc2ccccc2)nc(Oc2cc(=O)oc3ccccc23)n1	IIIB	MT-4	MTT		>61.15 µg/mL
Cc1cc(C(=O)NC(C)(C)C(=O)NC[C@H](O)[C@@]23CC[C@]4(C)[C@H](CC[C@@H]5[C@@]6(C)CC[C@H](OC(=O)[C@H]7C[C@@H](C(=O)O)C7(C)C)C(C)(C)[C@@H]6CC[C@]54C)C2=C(C(C)C)C(=O)C3)n[nH]1	92HT599	MT-2	p24 / ELISA		<1 µM
CCCCC1(CCc2cccc(NS(=O)(=O)c3ccccc3)c2)COC(=O)C(C(CC)c2cccc(NS(=O)(=O)c3ccccc3)c2)=C1O	IIIB	MT-4			15.1 µM
CCOC(=O)CNc1nc(Nc2cccc(C)c2)nc(Oc2cc(=O)oc3ccccc23)n1	IIIB	MT-4	MTT		>65.28 µg/mL
N#Cc1ccc(-c2csc(N/N=C/c3ccccc3O)n2)cc1	IIIB	MT-4	MTT		>104 µM
COc1ccc(CCNc2nc(NC(=O)Nc3ccc(Br)cc3)nc(Oc3cc(=O)oc4ccccc34)n2)cc1OC	IIIB	MT-4	MTT		>47.63 µg/mL
CC(C)=CCN1Cc2cc(Cl)cc3[nH]c(=O)n(c23)C[C@@H]1C	IIIB	MT-4	cytopathic effect / XTT		0.25 µM
C(=N\Nc1nc(-c2ccccc2)cs1)/c1cccnc1	IIIB	MT-4	MTT		>11.6 µM

An empty or dashed field is not shown. Neighbouring rows are from separate reports.